{"source": "patent US20240175010", "target": "T1, Tn5 transposase (bead-linked transposomes) (UniProt Q46731)", "T1 sequence (looked up, limits assumed)": "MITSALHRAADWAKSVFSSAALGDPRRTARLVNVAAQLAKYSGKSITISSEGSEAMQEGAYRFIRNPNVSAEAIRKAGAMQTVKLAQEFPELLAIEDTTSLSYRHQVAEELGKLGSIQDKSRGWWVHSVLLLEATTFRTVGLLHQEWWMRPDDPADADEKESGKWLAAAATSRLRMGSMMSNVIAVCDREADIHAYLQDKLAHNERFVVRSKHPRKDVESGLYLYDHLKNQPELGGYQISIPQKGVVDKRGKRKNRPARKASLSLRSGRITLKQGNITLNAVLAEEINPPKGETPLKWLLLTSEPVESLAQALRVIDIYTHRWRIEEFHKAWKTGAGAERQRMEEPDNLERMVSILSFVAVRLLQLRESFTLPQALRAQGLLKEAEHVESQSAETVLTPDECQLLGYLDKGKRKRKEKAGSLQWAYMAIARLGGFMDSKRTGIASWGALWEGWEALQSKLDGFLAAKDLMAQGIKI", "assay": "activity assay", "conditions": "inosine at position 19, NTS 5'-phosphate, 3'-biotin [19 (inosine, parent G, transferred strand), non-transferred strand 5'-phosphate, BLT activity higher than position 16, highest performance, purified recombinant protein, protein details: Illumina, letters built from the parent sequence and the stated change, variant of wild-type mosaic end", "note": "Construct, isoform or probe ends are uncertain for at least one entry. Where a protein sequence is shown, tags need not be part of it.", "data": [{"sequence": "AGATGTGTATAAGAGACAG (double strand) [I19 ME]", "values": [{"measurement": "activity on this sequence", "value": "active"}]}]}
